Values from PubChem BioAssay AID504761 (Drosophila RNAi Screening Center, 2011).
Purpose: 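Genome-wide fly cell screen for genes dengue virus requires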 (primary screen). System: D.Mel-2 cells from Drosophila. Reagent: long dsRNA against Drosophila genes. Challenge: infection with dengue virus type 2; dose and infection time not stated. Read-out: 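Cells stained for dengue envelope protein and imaged; percent of infected cells per well on duplicate plates, ranked by infection, with stained nuclei counted for cell number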. Direction: infection score: higher = more virus-infected cells; cell count: higher = more cells in the well. Active means: 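Very low infection ranking in both replicate wells (chance probability at most 0.065), then a retest showing infection dropped 1.5-fold or more at p below 0.05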. Calls: active = confirmed: knock-down lowers infection; inactive = not picked or not confirmed.
The screen tested about 22,000 reagents; below is an unselected part of those with a known target gene and a result. In the full data, 116 (0.52%) were called active. 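Calls depend on retest data that are not deposited; infection was ranked per plate without normalising between plates; the unit of the infection score is not given.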 Raw values vary from plate to plate and are shown uncorrected. A plus sign joins genes that one reagent is predicted to hit. Not stated in the record: the amount of reagent, the time to read-out.

Gene	DRSC id	infection score, replicate 1	infection score, replicate 2	cell count, replicate 1	cell count, replicate 2	activity call
Ravus	DRSC15126	2.36	3.58	6919	7063	inactive
stv	DRSC10111	1.13	0.99	6478	6436	inactive
stv	DRSC24419	4.35	3.6	6209	5754	inactive
Paris	DRSC00451	29.1	17.4	5106	5290	inactive
Paris	DRSC29550	10.2	27.3	654	5686	inactive
CG30158	DRSC04956	2.78	0.96	5872	5643	inactive
CG30158	DRSC04974	14.2		2458	412	inactive
CG30158	DRSC04975			439	461	inactive
CG30158	DRSC05012			468	418	inactive
brv1	DRSC11076	2.13	7.62	5866	5994	inactive
CG13084	DRSC02188	25.5	10.6	5490	6266	inactive
Rh5	DRSC03412	15.6	7.8	6105	6231	inactive
Rh5	DRSC25429	5.79	22.4	5613	5958	inactive
Hgsnat	DRSC18405	14.8	1.92	3318	6161	inactive
Hgsnat	DRSC24716	3.94	4.35	6622	6421	inactive
CG12355	DRSC09381	2.11	3.41	6308	6215	inactive
CG12355	DRSC09883	1.94	3.87	6452	6457	inactive
ppk9	DRSC04134	6.09	23.9	6418	6093	inactive
ppk9	DRSC04135	16.8	25	6351	6137	inactive
Ip259	DRSC03352	11.2	3.4	5157	5624	inactive
GstE6	DRSC06676	4.97	16.7	5709	4838	inactive
Imp	DRSC18861	1.22	6.93	5816	6480	inactive
Imp	DRSC20255	3.37	4.69	6528	6863	inactive
wdp	DRSC04367	14.2	34.8	6105	5787	inactive
wdp	DRSC28581			254	279	inactive
CG1271	DRSC08290	16.7	15.1	6798	6038	inactive
PGRP-LD + Cralbp + Pmi	DRSC09743	0.68	7.67	6138	5865	inactive
CG46385	DRSC06557	12	19.7	5707	5335	inactive
CG46385	DRSC25794	0.95	6.11	6448	6084	inactive
Cda9	DRSC06593	5.13	9.3	6358	6378	inactive
CG13365	DRSC17899	1.99	3.47	6424	6477	inactive
CG13365	DRSC27043	6.69	5.65	6246	6456	inactive
CG5756	DRSC06950	16	7.01	5867	7215	inactive
CG5756	DRSC28245	9.53	8.17	6005	4037	inactive
CG2931	DRSC12324	16.7	14.1	5602	5292	inactive
CG9903	DRSC20213	3.93	17.5	6847	5867	inactive
Mic26-27	DRSC15913	11.4	21.6	6915	6376	inactive
CG13004	DRSC19523	2.13	2.13	6237	6244	inactive
CG12017	DRSC08225	2.39	2.96	6472	6148	inactive
CG12017	DRSC28937	12	1.96	5380	920	inactive
CG31675	DRSC01825	2.08	1.3	5913	6235	inactive
CG31675	DRSC26340	10.7	1.25	6405	6341	inactive
CG6583	DRSC02972	0.93	3.11	6230	6756	inactive
CG6583	DRSC27517	4.09	6.31	6569	6723	inactive
CG12825	DRSC06174	0.97	14.5	6364	5230	inactive
CG12825	DRSC26984	2.11	24.9	6544	5922	inactive
Su(Tpl)	DRSC10954	1.17	3.2	6779	7159	active
Su(Tpl)	DRSC26497	2.58	4.09	6352	6165	inactive
snama	DRSC04049	23.4	14.2	5573	6472	inactive
snama	DRSC28914	18.4	35.8	2704	5108	inactive
Blos1	DRSC05970	6.75	3.68	6624	6492	inactive
CG30172	DRSC21519	2.87	15	5671	5508	inactive
CG30172	DRSC30069	3.27	3.12	6674	5992	inactive
Ge-1	DRSC02938	9.13	12.1	6188	5466	inactive
Ge-1	DRSC28827	19.2	6.03	5662	4479	inactive
CG15741	DRSC19707	11.2	9.54	5587	5988	inactive
CG15741	DRSC24220	5.79	6.31	6946	6512	inactive
mTor	DRSC02811	6.29	4.27	6537	7279	inactive

As entered above:
CG13365 [DRSC27043], infection score, replicate 1 = 6.69
Under “infection score, replicate 2”, Ge-1 [DRSC28827] has 6.03
Entry for Su(Tpl) [DRSC26497] in “infection score, replicate 2”: 4.09
Value for ppk9 [DRSC04134] in “cell count, replicate 1”: 6418
Result of CG30172 [DRSC21519] under “cell count, replicate 2”: 5508
